PubChem BioAssay AID624099 – ICCB-Longwood, 2012

- Assay: 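Human genes that papillomavirus E2 requires to repress the HPV18 LCR promoter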 (primary screen)
- Cells: human C33A cervical carcinoma cells (HPV-negative) stably expressing BPV1 E2 and an HPV18 LCR luciferase reporter
- Reagent: siRNA pool against human genes, 40 nM
- Duration: 72 h
- Read-out: 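HPV18 LCR reporter light per well, converted to plate-wise z-scores that exclude control wells, and averaged over triplicate plates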
- Scale: mean z-score and z-score: higher = stronger reporter signal, weaker E2 silencing
- Call rule: 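Hit if mean z-score reaches 2 and two or more of three replicate z-scores also reach 2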
The deposit covers about 21,000 reagents; this is an unselected part. 497 of them (2.4%) count as active. 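Higher z means weaker E2 silencing; only reporter increases were scored, and knock-downs that hurt cell survival may mask genuine repressor factors.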 A number with no mark means an inactive call. No sequences are given here.

The first 6 records, ahead of the listing:
no.	gene	PubChem SID	mean z-score	z-score, replicate A	z-score, replicate B	z-score, replicate C
1	KLF14	SID134312253	0.11	0.26	0.08	-0.01
2	SPP2	SID134323490	0.07	0.18	0.25	-0.23
3	H2BC13	SID134315776	-1.39	-1.04	-1.79	-1.33
4	SUPT16H	SID134314249	-0.05	-0.18	0.12	-0.1
5	ANKRD20A18P	SID134329067	-0.38	-0.22	-0.21	-0.72
6	EEF2K	SID56478937	-0.02	0.03	-0.2	0.11

Main list, from the start:
no.	gene	PubChem SID	mean z-score	z-score, replicate A	z-score, replicate B	z-score, replicate C
1	KLF14	SID134312253	0.11	0.26	0.08	-0.01
2	SPP2	SID134323490	0.07	0.18	0.25	-0.23
3	H2BC13	SID134315776	-1.39	-1.04	-1.79	-1.33
4	SUPT16H	SID134314249	-0.05	-0.18	0.12	-0.1
5	ANKRD20A18P	SID134329067	-0.38	-0.22	-0.21	-0.72
6	EEF2K	SID56478937	-0.02	0.03	-0.2	0.11
7	GLMP	SID134320360	-1.06	-1.09	-1.15	-0.93
8	C3P1	SID134328975	0.56	0.71	0.42	0.54
9	CHMP1A	SID134314912	-1.01	-0.92	-1.03	-1.08
10	AGPAT2	SID134310090	-1.01	-1.04	-0.94	-1.07
11	RFESD	SID134321788	-1.21	-1.14	-1.24	-1.24
12	LOC387717 (retired record)	SID134328185	-0.15	-0.32	-0.32	0.18
13	NR5A1	SID134309880	1.42	1.64	1.42	1.19
14	NCSTN	SID134312975	-0.73	-0.59	-0.85	-0.75
15	CWC27	SID134323771	0.15	0.06	0.42	-0.01
16	NANOS2	SID134328919	-0.28	-0.22	-0.1	-0.52
17	USP41P	SID134329087	1.4	1.38	1.78	1.03
18	SEM1	SID134324941	0.06	-0.06	0.09	0.14
19	SEM1	SID134329659	-0.03	0	0.07	-0.17
20	CMTM4	SID134315244	-0.4	-0.5	-0.82	0.12
21	KYNUP1	SID134328777	-0.21	-0.18	-0.2	-0.23
22	MTMR6	SID134313189	0.2	0.32	0.16	0.11
23	HMGXB3	SID134327535	1.6	1.75	1.47	1.59
24	KRABD2	SID134325580	-1.03	-1	-1.07	-1.01
25	SGK1	SID56478479	-1.08	-1.14	-1.31	-0.78
26	FTHL17	SID134317729	-0.59	-0.3	-0.74	-0.73
27	SERBP1	SID134324218	0.3	0.44	0.2	0.25
28	MRPL19	SID134317643	0.24	0.07	0.16	0.49
29	KRT77	SID134329372	0.07	0.35	0.19	-0.32
30	MAGEC1	SID134316345	1.09	0.62	1.67	0.99
31	LINC00525	SID134319058	-0.32	-0.06	-0.58	-0.32
32	RNF138	SID134312116	-0.94	-0.47	-1.27	-1.08
33	RPS15P3	SID134327031	-0.11	0.13	-0.36	-0.11
34	PARP10	SID134319064	0.18	0.34	-0.06	0.25
35	ITGB6	SID134312945	0.86	0.94	0.81	0.83
36	GBA2	SID134314129	0.73	0.08	0.45	1.66
37	CD300E	SID134321797	-0.03	-0.07	0	-0.03
38	TEX2	SID134321076	2.15 (active)	2.32	2.01	2.12
39	TUT1	SID134318396	1.14	1.4	0.66	1.37
40	ZNF133	SID134321617	-0.21	-0.07	-0.32	-0.24
41	LOC401445 (retired record)	SID134327960	0.15	0.39	-0.01	0.07
42	KRT5	SID134315428	-0.45	-0.49	-0.38	-0.47
43	LZTS1	SID134324455	-0.65	-0.61	-0.65	-0.68
44	PTCD3	SID134320927	-0.26	-0.26	0	-0.53
45	IRX6	SID134325428	0.16	-0.01	0.36	0.12
46	TLL2	SID134311469	1.52	1.63	1.63	1.3
47	DHRS1	SID134313444	-0.36	-0.3	-0.2	-0.58
48	SYT8	SID134322975	0.93	0.74	1.08	0.98
49	RILPL1	SID134322028	-0.16	-0.55	0.06	0
50	PURB	SID134317916	-0.09	-0.31	-0.09	0.12
51	RTEL1	SID134317606	0.01	0.2	-0.2	0.02
52	TFRC	SID134310181	1	0.78	0.79	1.43
53	ZBTB6	SID134322391	-0.05	-0.14	0.32	-0.32
54	HSPE1	SID134323425	-1.07	-1.26	-0.97	-0.98
55	KCNH6	SID134311654	-1.02	-0.61	-1.05	-1.39
56	C2orf15	SID134319514	0.88	0.87	0.79	0.97
57	ARHGAP25	SID134324780	0.43	0.26	0.46	0.56
